Pooled drug test results. Numbers come from NIAID ChemDB, via PubChem.

All rows: target-level tests; organism: HIV-1; target: gp120

ICn: concentration for n% inhibition.

{"SMILES": "NOCc1c(F)cccc1Cl", "method": "ELISA", "read-out": "inhibition", "tested at": "0.8 µg/mL", "value": "9.2%"}
{"SMILES": "O=C1c2c(O)cc(O[C@@H]3C[C@@H](O)[C@H](O)[C@@H](CO)O3)cc2O[C@H](c2ccc(O)cc2)[C@H]1O", "method": "ELISA", "read-out": "inhibition", "tested at": "80 µg/mL", "value": ">80%"}
{"SMILES": "CC[C@H](C)/C=C(C)/C=C/C1=CC2=CC(=O)[C@]3(C)OC(=O)C(C(C)=O)C3C2CO1", "method": "ELISA", "read-out": "IC50", "value": ">260 µM"}
{"SMILES": "N[C@@H](CO)CC[C@@H]1O[C@H](CO)[C@H](O)[C@H](O)[C@H]1O", "method": "ELISA", "read-out": "inhibition", "tested at": "1000 µg/mL", "value": "0%"}
{"SMILES": "O=c1c(O[C@@H]2O[C@H](CO)[C@@H](O)[C@H](O)[C@H]2O)c(-c2ccc(O)cc2)oc2cc(O)cc(O)c12", "method": "binding", "read-out": "inhibition", "tested at": "9 µg/mL", "value": "~29%"}
{"SMILES": "CC[C@H](C)/C=C(C)/C=C/C1=CC2=C(Cl)C(=O)[C@](C)(O)[C@H](O)C2=CO1", "method": "ELISA", "read-out": "IC50", "value": "14.6 µM"}
{"SMILES": "CC[C@H](C)/C=C(C)/C=C/C1=CC2=C(Cl)C(=O)[C@](C)(OC(C)=O)C(=O)C2=CO1", "method": "ELISA", "read-out": "inhibition", "tested at": "250 µM", "value": "0%"}
{"SMILES": "O=C(O[C@@H]1Cc2c(O)cc(O)cc2O[C@@H]1c1cc(O)c(O)c(O)c1)c1cc(O)c(O)c(O)c1", "method": "fluorescence", "read-out": "inhibition", "tested at": "50 µM", "value": "34.4%"}
{"SMILES": "CC[C@H](C)/C=C(C)/C=C/C1=CC2=C(Cl)C(=O)[C@@]3(C)OC(=O)C(C(C)=O)=C3C2=CO1", "method": "ELISA", "read-out": "IC50", "value": ">240 µM"}
{"SMILES": "Oc1cc(O)c2c(c1)O[C@H](c1cc(O)c(O)c(O)c1)[C@H](O)C2", "strain": "IIIB", "method": "ELISA", "read-out": "inhibition", "tested at": "10 µg/mL", "value": "0%"}
{"SMILES": "O=C(CO)N[C@@H]([C@@H](O)[C@H](O)[C@H](O)CO)[C@@H](O)C(=O)C(=O)O", "strain": "MN", "read-out": "inhibition", "tested at": "20 µM", "value": "9.8%"}
{"SMILES": "CC[C@H](C)/C=C(C)/C=C/C1=CC2=CC(=O)[C@]3(C)OC(=O)[C@@H](C(C)=O)[C@@H]3C2=CO1", "method": "ELISA", "read-out": "IC50", "value": "114 µM"}
{"SMILES": "CC[C@H](C)/C=C(C)/C=C/C1=CC2=C(Cl)C(=O)[C@@]3(C)OC(=O)C(C(C)=O)=C3C2=CO1", "method": "ELISA", "read-out": "inhibition", "tested at": "300 µM", "value": "0%"}
{"SMILES": "Cc1ccc(-c2ccc3c(c2)C=C(C(=O)Nc2ccc(C[N+](C)(C)C4CCOCC4)cc2)CCC3)cc1", "strain": "JR-FL", "method": "antigen", "read-out": "inhibition", "tested at": "10 µM", "value": "0%"}
{"SMILES": "O=C(/C=C/c1ccc(O)c(O)c1)O[C@H]1[C@H](O)C[C@](O)(C(=O)O)C[C@H]1OC(=O)/C=C/c1ccc(O)c(O)c1", "method": "ELISA", "read-out": "inhibition", "tested at": "40 µg/mL", "value": ">80%"}
{"SMILES": "CC[C@H](C)/C=C(C)/C=C/C1=CC2=C(Cl)C(=O)[C@]3(C)OC(=O)[C@@H](C(C)=O)[C@@H]3C2=CO1", "method": "ELISA", "read-out": "IC50", "value": "6.6 µM"}
{"SMILES": "O=C1c2c(O)cc(O)cc2O[C@H](c2ccc(O)cc2)[C@H]1O", "method": "ELISA", "read-out": "inhibition", "tested at": "20 µg/mL", "value": "80%"}
{"SMILES": "O=C(O[C@@H]1Cc2c(O)cc(O)cc2O[C@@H]1c1ccc(O)c(O)c1)c1cc(O)c(O)c(O)c1", "strain": "IIIB", "method": "ELISA", "read-out": "inhibition", "tested at": "2 µg/mL", "value": "85%"}

A second listing of 2 rows from above:

SMILES	strain	method	read-out	tested at	value
O=C(/C=C/c1ccc(O)c(O)c1)O[C@H]1[C@H](O)C[C@](O)(C(=O)O)C[C@H]1OC(=O)/C=C/c1ccc(O)c(O)c1		ELISA	inhibition	40 µg/mL	>80%
NOCc1c(F)cccc1Cl		ELISA	inhibition	0.8 µg/mL	9.2%

Blank or dashed fields: not listed here. Rows are shuffled and stem from different studies. Inhibition is in % at the dose shown (toxicity tests: loss of growth or viability).